# Tested on: RB cells
smiles,measurement,value
O=c1c(-c2ccc(O)cc2)coc2cc(O)cc(O)c12 [genistein],reduction of Pri-MP uptake relative to vehicle controls,< 10%

# Source: publication PMC12510174 (International Journal of Biological Sciences, 2025)
